From PMC2596486 (PLoS ONE, 2008) come the findings set out here.

The experiment deals with rHA subtype H9 (A/Hong Kong/1073/99) (Influenza A virus A/Hong Kong/1073/99 …, UniProt Q9ICY5, strain). The experiment in a line: SPR. The conditions noted are these: both partners purified.

B1: CR6323 Fab (Fab, V domains shown)
VH: EVQLVESGAEVKKPGSSVKVSCKASGGTFSSYGISWVRQAPGQGLEWMGDIIGMFGSTNYAQNFQGRLTITADESTSTAYMELSSLRSEDTAVYYCARSSGYYPAYLPHWGQGTLVTVSS
VL: not shown
For orientation: Kd means a measure of binding affinity in units of concentration. Lower therefore signals higher affinity. A word on the koff: it is the rate constant with which the complex falls apart. A high value points to a short-lived complex. For orientation: kon means the second-order rate constant of association. Higher therefore signals faster complex formation. In the case of B1, the Kd turned out to be 2.1 nM, the koff was determined as 0.0027 s⁻¹ and the kon was 1.3e+06 M⁻¹ s⁻¹.
